By UniProt entry, the sequences of proteins in these tests, tags left out.
UniProt P03206, whole entry: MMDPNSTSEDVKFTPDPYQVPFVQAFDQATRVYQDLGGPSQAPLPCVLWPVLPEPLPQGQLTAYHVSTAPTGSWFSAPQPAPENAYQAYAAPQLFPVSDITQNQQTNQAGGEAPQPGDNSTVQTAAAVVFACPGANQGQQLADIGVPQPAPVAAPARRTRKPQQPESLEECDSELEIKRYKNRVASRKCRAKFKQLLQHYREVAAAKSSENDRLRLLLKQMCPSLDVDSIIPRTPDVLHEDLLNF

This is a selection; strong and weak results do not stand in their true shares. The source made the active and inactive calls. No stated cut-off is given here; in the data, active means inhibition above about 33%; inactive means the rest.
The compounds below were run against Lytic switch protein BZLF1 (Epstein-Barr virus (strain B95-8)) (UniProt P03206) (assay: Zta-DNA interaction blockers, Epstein-Barr virus – biochemical, fluorescence polarization, single concentration, counter-screen for EBNA-1 inhibitor project, primary screen (AID 2234)). Settings: ZTA-DNA binding, at 11 µM, stronger effect = higher value.
`CCOC(=O)N1CCC(Nc2ccc(C)cc2)CC1` was tested, and the inhibition was inactive: 1.37%.
For `N/C(=N\O)c1c(N)no[n+]1[O-]`, the inhibition was inactive: 3.68%.
`CCc1cc(C(=O)NCC2(N3CCCCC3)CCCCC2)sc1C` was tested, and the inhibition was inactive: -8.99%.
`O=C(OC1CN2CCC1CC2)C1c2ccccc2C=Cc2ccccc21` (stereo unspecified) was tested, and the inhibition was inactive: -2.65%.
`O=C(NCC1(N2CCOCC2)CCCCC1)c1cc(Br)ccc1Cl` was tested, and the inhibition was inactive: 7.03%.
With `COc1ccc(C(=O)NCC2(N3CCOCC3)CCCCC2)cc1OC` the inhibition was inactive: 0.2%.
In the case of `CN(C)C1(CNC(=O)c2cccc(C#N)c2)CCCCC1`, the inhibition is reported as inactive: 0.65%.
With `CCCN1CCC(Nc2cc(OC)cc(OC)c2)CC1` the inhibition was inactive: -12.7%.
In the case of `c1ccc(CN2CCC(Nc3ccccc3)CC2)cc1`, the inhibition is reported as inactive: 5.71%.
`N#Cc1ccc(C(=O)NCC2(N3CCCCC3)CCCCC2)cc1` was tested, and the inhibition was inactive: 1.74%.
`CC(C)(C)OC(=O)N1CCC(N(C(=O)c2ccccc2)c2ccc(Cl)cc2)CC1` was tested, and the inhibition was inactive: -6.43%.
For `CCN1CCC(Nc2cccc(F)c2)CC1`, the inhibition was inactive: 1.13%.
`CN(C)c1ccc(C(=O)NCC2(N3CCCCC3)CCCCC2)cc1` was tested, and the inhibition was inactive: -8.43%.
In the case of `O=C(NCC1(N2CCCCC2)CCCCC1)c1ccco1`, the inhibition is reported as inactive: -5.83%.
`COc1cc(OC)cc(C(=O)NCC2(N3CCCCC3)CCCCC2)c1` was tested, and the inhibition was inactive: 1.7%.
For `Fc1ccccc1NC1CCN(Cc2ccccc2)CC1`, the inhibition was inactive: -2.1%.
For `Cc1ccc(C(=O)NCC2(N3CCCCC3)CCCCC2)o1`, the inhibition was inactive: 11.6%.
For `COc1cccc(C(=O)N(c2cc(C)cc(C)c2)C2CCN(C(=O)OC(C)(C)C)CC2)c1`, the inhibition was inactive: -7.17%.
For `COc1cc(OC)cc(C(=O)NCC2(N3CCOCC3)CCCCC2)c1`, the inhibition was inactive: 18.8%.
For `CCC(CO)(C(=O)OC1CN2CCC1CC2)c1ccccc1` (stereo unspecified), the inhibition was inactive: -7.86%.
In the case of `CN1CCC(Nc2ccc(Cl)cc2)CC1`, the inhibition is reported as inactive: 14.2%.
`CCCOc1ccc(C)cc1CN(CCCl)CCCl` was tested, and the inhibition was inactive: 13.7%.
In the case of `CN1CCC(Nc2ccc(F)c(Cl)c2)CC1`, the inhibition is reported as inactive: -11.2%.
`CCOc1ncccc1C(=O)NCC1(N2CCOCC2)CCCCC1` was tested, and the inhibition was inactive: 10.2%.
With `O=C(O)C1(Nc2ccccc2)CCN(Cc2ccccc2)CC1` the inhibition was inactive: -11.9%.
For `CC(C)(C)OC(=O)N1CCC(Nc2ccccc2)CC1`, the inhibition was inactive: -7.97%.
For `CCCOc1ccc(C(=O)NCC2(N(C)C)CCCCC2)cc1`, the inhibition was inactive: -6.71%.
In the case of `Cc1cc(C)cc(N(C(=O)c2ccccc2)C2CCN(C(=O)OC(C)(C)C)CC2)c1`, the inhibition is reported as inactive: -12.1%.
`O=C(NCC1(N2CCCCC2)CCCCC1)c1ccc(Cl)nc1` was tested, and the inhibition was inactive: -18%.
`O=C(NCC1(N2CCOCC2)CCCCC1)c1cc2ccccc2o1` was tested, and the inhibition was inactive: -9.31%.
`COc1ccc(Cl)cc1C(=O)NCC1(N2CCOCC2)CCCCC1` was tested, and the inhibition was inactive: 1.82%.
With `N#CC1(Nc2ccccc2)CCN(Cc2ccccc2)CC1` the inhibition was inactive: 5.2%.
In the case of `O=C(NCC1(N2CCCCC2)CCCCC1)c1ccc(Cl)s1`, the inhibition is reported as inactive: -25.1%.
With `O=C(OC1CN2CCC1CC2)C1c2ccccc2Oc2ccccc21` (stereo unspecified) the inhibition was inactive: -2.87%.
For `CCOC(=O)N1CCC(Nc2ccc(OC)cc2)CC1`, the inhibition was inactive: 7.88%.
`COc1ccc(C(=O)NCC2(N3CCCCC3)CCCCC2)c(OC)c1OC` was tested, and the inhibition was inactive: 14.2%.
In the case of `CC(C)(C)OC(=O)N1CCC(N(C(=O)c2ccccc2)c2ccc(F)cc2)CC1`, the inhibition is reported as inactive: 13.9%.
With `COc1ccc(C(=O)NCC2(N3CCCCC3)CCCCC2)cc1` the inhibition was inactive: -17.2%.
For `O=C(NCC1(N2CCCCC2)CCCCC1)c1cccs1`, the inhibition was inactive: 11.5%.
`O=C(NCC1(N2CCCCC2)CCCCC1)c1ccc(=O)[nH]c1` was tested, and the inhibition was inactive: 7.44%.
In the case of `CSc1ccccc1C(=O)NCC1(N2CCCCC2)CCCCC1`, the inhibition is reported as inactive: -13.6%.
With `Cc1ccc(OCC(C)C)c(CN(CCCl)CCCl)c1` the inhibition was inactive: -6.92%.
In the case of `CCOC(=O)N1CCC(Nc2cccc(C)c2)CC1`, the inhibition is reported as inactive: 8.31%.
`CCOc1ccc(C)cc1CN(CCCl)CCCl` was tested, and the inhibition was inactive: 1.89%.
In the case of `COc1ccc(NC2CCN(CCc3ccccc3)CC2)c(OC)c1`, the inhibition is reported as inactive: -6.89%.
For `O=C(NCC1(N2CCCCC2)CCCCC1)c1ccc(F)cc1`, the inhibition was inactive: -0.59%.
For `O=C(NCC1(N2CCCCC2)CCCCC1)c1cccc(C(F)(F)F)c1`, the inhibition was inactive: 0.36%.
With `O=C(NCC1(N2CCOCC2)CCCCC1)c1cc(=O)[nH]c2ccccc12` the inhibition was inactive: 11.4%.
For `COc1cc(C(=O)NCC2(N3CCCCC3)CCCCC2)ccc1OC(F)F`, the inhibition was inactive: -13.8%.
For `COc1ccc(NC2CCN(C(=O)OC(C)(C)C)CC2)cc1`, the inhibition was inactive: -13.3%.
In the case of `CN1CCN(CCOC(=O)C(O)(c2ccccc2)c2ccccc2)CC1`, the inhibition is reported as inactive: 3.03%.
In the case of `O=C(NCC1(N2CCCCC2)CCCCC1)c1ccc(OC(F)F)cc1`, the inhibition is reported as inactive: -0.45%.
With `N#CC1(Nc2ccccc2)CCN(CCc2ccccc2)CC1` the inhibition was inactive: -19.9%.
With `CCN1CCC(Nc2ccc(Cl)cc2)CC1` the inhibition was inactive: 14.9%.
With `O=C(NCC1(N2CCCCC2)CCCCC1)c1cccc([N+](=O)[O-])c1` the inhibition was inactive: -1.24%.
For `CN1CCC(Nc2cccc(F)c2)CC1`, the inhibition was inactive: 13.7%.
`O=C(NCC1(N2CCCCC2)CCCCC1)c1cncc(Br)c1` was tested, and the inhibition was inactive: 10.6%.
In the case of `CC(C)c1ccc(NC2CCN(C(=O)OC(C)(C)C)CC2)cc1`, the inhibition is reported as inactive: 1.68%.
In the case of `CN(C)c1cccc(C(=O)NCC2(N3CCCCC3)CCCCC2)c1`, the inhibition is reported as inactive: -4.33%.
For `COc1ccc(CN(CCCl)CCCl)cc1Cl`, the inhibition was inactive: 5.81%.
With `COc1cc(OC)c(C(=O)NCC2(N(C)C)CCCCC2)cc1OC` the inhibition was inactive: 10.2%.

From PubChem BioAssay AID2234 (The Scripps Research Institute Molecular Screening Center, 2010)
